Data from patent US9204653B2, “5-fluoro pyrimidine derivatives” (DOW AGROSCIENCES LLC, priority 2008, dated 2015).

Key:
[1] = tested on: Mycosphaerella graminicola; Anamorph: Septoria tritici; Bayer Code SEPTTR; assay: Leaf blotch of wheat, foliar fungicide treatment, one day protectant (1DP) or three day curative (3DC); format: in vivo, Septoria tritici on wheat plants (variety Yuma)
[2] = tested on: Cercospora beticola; Bayer Code CERCBE; assay: Leaf spot of sugar beets; format: in vivo, Cercospora beticola on sugar beets (variety HH-88); settings: % disease control rating, one day protectant
[3] = tested on: Venturia inaequalis; Bayer Code VENTIN; assay: Apple scab; format: in vivo; settings: % disease control rating, one day protectant
[4] = one day protectant (1DP), rating of percent disease control
[5] = three day curative (3DC), rating of percent disease control
[6] = one day protectant, rating of percent disease control
[7] = three day curative, rating of percent disease control
[8] = one day protectant (1DP), percent disease control rating
[9] = three day curative (3DC), percent disease control rating

For `CCOP(=O)(Nc1nc(OCc2ccccc2OC)ncc1F)OCC`, the “SETTTR 1DP 25 ppm” value [1, 4] was “D (0-25)”, the “SEPTTR 1DP 100 ppm” value [1, 4] was “D (0-25)” and the “SEPTTR 3DC 25 ppm” value [1, 5] was “D (0-25)”. The “SEPTTR 3DC 100 ppm” value [1, 5] was “D (0-25)”.
In the case of `CCOP(=O)(Nc1nc(OC(C)c2ccc(F)cc2)ncc1F)OCC` (stereo not shown), the “SETTTR 1DP 25 ppm” value [1, 6] is reported as “C (26-50)”, the “SEPTTR 1DP 100 ppm” value [1, 6] is reported as “B (51-75)” and the “SEPTTR 3DC 25 ppm” value [1, 7] is reported as “C (26-50)”. For the same compound, the “SEPTTR 3DC 100 ppm” value [1, 7] was “A (76-100)”.
For `CCOP(=O)(Nc1nc(OCc2cccc(C#N)c2)ncc1F)OCC`, the “CERCBE 1 DP 25 ppm” value ([2]; 25 ppm) was “C (26-50)”, the “CERCBE 1 DP 75 ppm” value ([2]; 75 ppm) was “C (26-50)” and the “SETTTR 1DP 25 ppm” value [1, 6] was “D (0-25)”. The “SEPTTR 1DP 100 ppm” value [1, 6] was “D (0-25)”, the “SEPTTR 3DC 25 ppm” value [1, 7] was “D (0-25)” and the “SEPTTR 3DC 100 ppm” value [1, 7] was “B (51-75)”. For the same compound, the “VENTIN 1 DP 25 ppm” value ([3]; 25 ppm) was “D (0-25)” and the “VENTIN 1 DP 75 ppm” value ([3]; 75 ppm) was “D (0-25)”.
In the case of `CCOP(=O)(Nc1nc(OCc2ccccc2)ncc1F)OCC`, the “SETTTR 1DP 25 ppm” value [1, 8] is reported as “D (0-25)”, the “SEPTTR 1DP 100 ppm” value [1, 8] is reported as “C (26-50)” and the “SEPTTR 3DC 25 ppm” value [1, 9] is reported as “C (26-50)”. The “SEPTTR 3DC 100 ppm” value [1, 9] was “A (76-100)”.
`CCOP(=O)(Nc1nc(OCc2cccs2)ncc1F)OCC` was tested, and the “SETTTR 1DP 25 ppm” value [1, 4] was “C (26-50)”, the “SEPTTR 1DP 100 ppm” value [1, 4] was “A (76-100)” and the “SEPTTR 3DC 25 ppm” value [1, 5] was “B (51-75)”. For the same compound, the “SEPTTR 3DC 100 ppm” value [1, 5] was “A (76-100)”.
In the case of `CCOP(=O)(Nc1nc(OCc2ccc(C)cc2)ncc1F)OCC`, the “SETTTR 1DP 25 ppm” value [1, 4] is reported as “D (0-25)”, the “SEPTTR 1DP 100 ppm” value [1, 4] is reported as “D (0-25)” and the “SEPTTR 3DC 25 ppm” value [1, 5] is reported as “D (0-25)”. The “SEPTTR 3DC 100 ppm” value [1, 5] was “D (0-25)”.
In the case of `CCOP(=O)(Nc1nc(OCc2cccc(F)c2)ncc1F)OCC`, the “SETTTR 1DP 25 ppm” value [1, 6] is reported as “D (0-25)”, the “SEPTTR 1DP 100 ppm” value [1, 6] is reported as “B (51-75)” and the “SEPTTR 3DC 25 ppm” value [1, 7] is reported as “D (0-25)”. The “SEPTTR 3DC 100 ppm” value [1, 7] was “B (51-75)”.
`CCOP(=O)(Nc1nc(OCc2ccc(F)cc2)ncc1F)OCC` was tested, and the “SETTTR 1DP 25 ppm” value [1, 8] was “C (26-50)”, the “SEPTTR 1DP 100 ppm” value [1, 8] was “B (51-75)” and the “SEPTTR 3DC 25 ppm” value [1, 9] was “D (0-25)”. The “SEPTTR 3DC 100 ppm” value [1, 9] was “D (0-25)”.
`CCOP(=O)(Nc1nc(OCc2ccc(OC)c(F)c2)ncc1F)OCC` was tested, and the “SETTTR 1DP 25 ppm” value [1, 4] was “D (0-25)”, the “SEPTTR 1DP 100 ppm” value [1, 4] was “D (0-25)” and the “SEPTTR 3DC 25 ppm” value [1, 5] was “D (0-25)”. For the same compound, the “SEPTTR 3DC 100 ppm” value [1, 5] was “C (26-50)”.
